## Potato spindle tuber viroid, loop 15: variant abundance in plants

Reference: Wu et al. 2024, doi:10.1371/journal.ppat.1012142.

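Three N. benthamiana plants were inoculated with the whole mutant pool. Progeny were sequenced from the inoculated region (day 5), the margin of the inoculated leaf (day 10) and systemic leaves (day 12).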

The pool varies loop 15 of the PSTVd intermediate strain in the pattern GGAAACCGNNNNNNC; wild type is GGAAACCGCUACUAC (upper and lower strand joined, each 5' to 3', the first 7 letters being the upper strand, closing pairs included).

Numbers give reads per thousand; 0 = not seen among the reads, higher = more abundant.
Each value is the mean of three plants.
"Pool" is the share in the plasmid pool used as inoculum, on the same scale.
The inoculated region was read from the minus strand, the other sites from the plus strand.
IR is the inoculated region, LM the leaf margin, Sys the systemic leaves.

GGAAACCGACGUAAC (pool 0.192) gave IR 0.127; LM 0; Sys 0.
GGAAACCGGCUUGAC (pool 0.224) gave IR 0.0838; LM 0.0128; Sys 0.
GGAAACCGGCCGCCC (pool 0.256) gave IR 0.114; LM 0.00668; Sys 0.
GGAAACCGCCCGAUC (pool 0.224) gave IR 0.363; LM 0.103; Sys 0.0107.
GGAAACCGACAAAAC (pool 0.272) gave IR 0.344; LM 0.0690; Sys 0.0107.
GGAAACCGGUCUACC (pool 0.304) gave IR 0.0967; LM 0.0187; Sys 0.
GGAAACCGGUUUGUC (pool 0.176) gave IR 0.106; LM 0; Sys 0.00537.
GGAAACCGUCCAAUC (pool 0.176) gave IR 0.236; LM 0.0187; Sys 0.0158.
GGAAACCGUUUAGAC (pool 0.256) gave IR 0.0964; LM 0.0328; Sys 0.
GGAAACCGUCUCCUC (pool 0.288) gave IR 0.140; LM 0.00668; Sys 0.0107.
GGAAACCGCUGCGUC (pool 0.176) gave IR 0.109; LM 0.0208; Sys 0.
GGAAACCGUAACUCC (pool 0.224) gave IR 0.316; LM 0.128; Sys 0.00537.
GGAAACCGGGCGACC (pool 0.240) gave IR 0.102; LM 0; Sys 0.
GGAAACCGCAAUGGC (pool 0.160) gave IR 0.304; LM 0.0128; Sys 0.
GGAAACCGUCGGCGC (pool 0.192) gave IR 0.108; LM 0.00539; Sys 0.00537.
GGAAACCGAUGUUUC (pool 0.192) gave IR 0.139; LM 0.0121; Sys 0.
GGAAACCGCUGGUAC (pool 0.176) gave IR 0.234; LM 0.105; Sys 0.0566.
GGAAACCGCGCUAGC (pool 0.192) gave IR 0.0795; LM 0.0362; Sys 0.
GGAAACCGAGCCAAC (pool 0.304) gave IR 0.0742; LM 0.00539; Sys 0.
GGAAACCGGCGAUAC (pool 0.320) gave IR 0.266; LM 0.0752; Sys 0.0616.
GGAAACCGGGUUCCC (pool 0.272) gave IR 0.0516; LM 0.0121; Sys 0.
GGAAACCGUUACGAC (pool 0.256) gave IR 0.290; LM 0.0986; Sys 0.0215.
GGAAACCGAUGGAAC (pool 0.192) gave IR 0.324; LM 0.143; Sys 0.0161.
GGAAACCGCCAAACC (pool 0.336) gave IR 0.0951; LM 0.0121; Sys 0.
GGAAACCGUCUCUCC (pool 0.192) gave IR 0.0957; LM 0.0108; Sys 0.00537.
GGAAACCGUUGUUUC (pool 0.144) gave IR 0.434; LM 0.145; Sys 0.00537.
GGAAACCGUAGUUAC (pool 0.192) gave IR 0.321; LM 0.126; Sys 0.0585.
GGAAACCGUUGCCAC (pool 0.272) gave IR 0.0904; LM 0.0121; Sys 0.
GGAAACCGACAGCUC (pool 0.112) gave IR 0.159; LM 0.0215; Sys 0.
GGAAACCGGGCUUAC (pool 0.192) gave IR 0.187; LM 0; Sys 0.
GGAAACCGUUUGCAC (pool 0.240) gave IR 0.121; LM 0.00668; Sys 0.
GGAAACCGGCGUUAC (pool 0.176) gave IR 0.0740; LM 0.00668; Sys 0.00537.
GGAAACCGCGCCCUC (pool 0.176) gave IR 0.0696; LM 0.0249; Sys 0.00537.
GGAAACCGAAAGAAC (pool 0.224) gave IR 0.258; LM 0.146; Sys 0.0461.
GGAAACCGGUCCAUC (pool 0.288) gave IR 0.118; LM 0.00742; Sys 0.

With 43,870-66,106 reads a sample, very low values are single reads.
Wild type was 33.9 per thousand in the pool and the most common sequence in every sample (inoculated region 202, 200, 159; leaf margin 724, 746, 710; systemic leaves 856, 883, 880).
Sequences that differ at fixed positions probably stem from PCR or sequencing errors, and defective variants can be carried along by functional ones.